A mixed list of measured activities; the numbers were collected in NIAID ChemDB.

Common to all: tests in culture; organism: Mycobacterium fortuitum; read-out: MIC

Conditions beyond the fields shown may differ between rows.

SMILES,strain or isolate,result
CO[C@@]1(NC(=O)Cc2ccccc2)C(=O)N2C(C(=O)[O-])=C(CSc3nnc(C)s3)CSC21,AO5,25 µg/mL
N/C(=N\N=C\c1ccc(Cl)c([N+](=O)[O-])c1)c1ccccn1,-,256 µg/mL
NC(=O)c1ncc(C(N)=S)nc1Nc1cccc(O)c1,1021,50 µg/mL
N/C(=N/N=C/c1ccc(Br)cc1)c1ccccn1,-,256 µg/mL
Cc1cccc(Nc2nc(C(N)=S)cnc2C(N)=O)c1,1021,>100 µg/mL
CO[C@@]1(NC(=O)Cn2cnnn2)C(=O)N2C(C(=O)O)=C(CSc3nnc(C)s3)CSC21,1047,100 µg/mL
CCCCNc1nc(C(N)=S)cnc1C(N)=O,1021,>100 µg/mL
Cc1ccc(C)c(/C=N/N=C(\N)c2ccccn2)c1,-,256 µg/mL
NC(=O)c1ncc(C(N)=S)nc1N1CCCC1,1021,>100 µg/mL
CO[C@@]1(NC(=O)C(C(=O)O)c2ccc(O)cc2)C(=O)N2C(C(=O)O)=C(CSc3nnnn3C)CO[C@@H]21,4-May,50 µg/mL
N/C(=N/N=C/c1ccccc1Cl)c1ccccn1,-,128 µg/mL
CO[C@@]1(NC(=O)Cc2ccccc2)C(=O)N2C(C(=O)O)=C(COC(C)=O)CSC21,1048,25 µg/mL
Cc1ccc(/C=N/N=C(/N)c2ccccn2)cc1,-,256 µg/mL
CC(C)N=c1cc2n(-c3ccc(Cl)cc3)c3ccccc3nc-2cc1Nc1ccc(Cl)cc1,TB87,2 µg/mL
C=CCN(CC=C)c1nc(C(N)=S)cnc1C(N)=O,1021,>100 µg/mL

A second listing of 2 rows from above:

SMILES | strain or isolate | result
N/C(=N/N=C/c1ccccc1Cl)c1ccccn1 | - | 128 µg/mL
NC(=O)c1ncc(C(N)=S)nc1N1CCCC1 | 1021 | >100 µg/mL

An empty or dashed field is not shown.